Data: patent publication US20180002366A1, “4'-SUBSTITUTED NUCLEOSIDE REVERSE TRANSCRIPTASE INHIBITORS” (MERCK SHARP & DOHME CORP., priority 2014, published 2018)

Test system: HIV-1 (H9IIIB virus) replication in MT4-GFP cells
Test: Antiviral Persistence assay
Settings: ratio of IC50 72 h to IC50 24 h
Procedure: HIV-1 replication was monitored using MT4-gag-GFP clone D3 (hereafter designate MT4-GFP), which are MT-4 cells modified to harbor a GFP reporter gene, the expression of which is dependent on the HIV-1 expressed proteins tat and rev. Productive infection of an MT4-GFP cell with HIV-1 results in GFP expression approximately 24 h post-infection. MT4-GFP cells were maintained at 37° C./5% CO2/90% relative humidity in RPMI 1640 supplemented with 10% fetal bovine serum, 100 U/mL penicillin/streptomycin, and 400 μg/mL G418 to maintain the reporter gene. For 72 hour time point persistence assay (72 h plate) and 24 hour time point control assay (24 h plate), MT4-GFP cells were washed and re-suspended in RPMI 1640 containing 10% normal human serum at either 1.6×10^5 or 2.4×10^5 cells/mL (10% NHS). Compound plates were prepared by dispensing compounds dissolved in DMSO into wells of 384 well cell culture plates ([…]) using an ECHO acoustic dispenser. Each compound was tested in a 10 point serial 3-fold dilution (typical final concentrations: 4.2 μM-0.21 nM). […]
Infected cells were quantified at ˜24 h post-infection, by counting the number of green cells in each well using an Acumen eX3 scanner. IC50s for the compounds in Table 4 were determined by non-linear 4-parameter curve fitting. […]

## (2R,3S,5R)-5-(4-aminopyrrolo[2,1-f][1,2,4]triazin-7-yl)-3-hydroxy-2-(hydroxymethyl)tetrahydrofuran-2-carbonitrile [Example 12]
  Fold shift IC50 72 h/24 h: 28
